{"source": "patent US7537765B2", "about": "“Inhibition of HIV-1 replication by disruption of the processing of the viral capsid-spacer peptide 1 protein” (priority 2003, dated 2009)", "origin": "cited, not measured here", "system": "HIV-1 replication in H9 lymphocyte cells", "conditions": "cited from earlier work; for therapeutic index (T.I.): H9 lymphocyte cells; for T.I.: acutely infected H9 lymphocytes", "note": "The index is printed as in the source, without its formula.", "data": [{"smiles": "C=C(C)[C@@H]1CC[C@]2(C(=O)O)CC[C@]3(C)[C@H](CC[C@@H]4[C@@]5(C)CC[C@H](O)C(C)(C)[C@@H]5CC[C@]43C)[C@@H]12", "note": "[Betulinic acid]", "values": [{"measurement": "therapeutic index (T.I.)", "value": 9.3}]}, {"smiles": "C=C(C)[C@@H]1CC[C@]2(C(=O)O)CC[C@]3(C)[C@H](CC[C@@H]4[C@@]5(C)CC[C@H](OC(=O)CC(C)(C)C(=O)O)C(C)(C)[C@@H]5CC[C@]43C)[C@@H]12", "note": "[DSB, 3-O-(3′,3′-dimethylsuccinyl)betulinic acid]", "values": [{"measurement": "T.I.", "value": "more than 970,000"}]}, {"smiles": "CC(C)[C@@H]1CC[C@]2(C(=O)O)CC[C@]3(C)[C@H](CC[C@@H]4[C@@]5(C)CC[C@H](OC(=O)CC(C)(C)C(=O)O)C(C)(C)[C@@H]5CC[C@]43C)[C@@H]12", "note": "[dihydrobetulinic acid analog, 3-O-(3′,3′-dimethylsuccinyl)dihydrobetulinic acid]", "values": [{"measurement": "T.I.", "value": "more than 400,000"}]}, {"smiles": "CC(C)[C@@H]1CC[C@]2(C(=O)O)CC[C@]3(C)C(CCC4[C@@]5(C)CC[C@H](O)C(C)(C)C5CC[C@]43C)C12", "note": "(some centres unmarked) [dihydrobetulinic acid]", "values": [{"measurement": "therapeutic index (T.I.)", "value": 14}]}, {"smiles": "CC(=O)[C@@H]1CC[C@]2(C(=O)O)CC[C@]3(C)[C@H](CC[C@@H]4[C@@]5(C)CC[C@H](O)C(C)(C)[C@@H]5CC[C@]43C)[C@@H]12", "note": "[platanic acid]", "values": [{"measurement": "therapeutic index (T.I.)", "value": 14}]}]}
